A mixed list of measured activities; the numbers were collected in NIAID ChemDB.

Common to all: tests in culture; agent: HIV-1

ECn: concentration that inhibits the pathogen or its effect by n%. Percent inhibition refers to the dose given; in toxicity tests it is the harm to the cells. Two numbers with a dash give a range or band. Fold resistance has wild type as its base. Blank or dashed fields: not listed here. Rows are shuffled and stem from different studies.

{"structure": "Cc1cn([C@H]2C[C@H](N=[N+]=[N-])[C@@H](CO)O2)c(=O)[nH]c1=O", "cell line": "CEM + CEM-SS", "mutations": "RT-K101E", "strain": "NL4-3 1 (RT K101E)", "read-out": "fold resistance", "method": "XTT", "value": "2"}
{"structure": "O=C(CSc1nnnn1-c1cccc2ccccc12)Nc1ccc(Cl)cc1Cl", "cell line": "MT-4", "read-out": "EC95", "method": "p24", "value": "<10 µM"}
{"structure": "CCCOc1ccc(Cc2cc(C3CCN(C[C@H]4CN([C@@H](C(=O)O)C(C)C)C[C@@H]4c4cccc(F)c4)CC3)n(CC)n2)cc1", "cell line": "HeLa", "strain": "BaL", "read-out": "EC90", "method": "β-galactosidase", "value": "0.0037 µM"}
{"structure": "Cc1cn([C@H]2C[C@H](N=[N+]=[N-])[C@@H](CO)O2)c(=O)[nH]c1=O", "cell line": "CEM + CEM-SS", "strain": "IIIB", "read-out": "EC50", "method": "cytopathic effect / XTT", "value": "0.003 µM"}
{"structure": "CC(C)(C)NC(=O)[C@@H]1C[C@@H]2CCCC[C@@H]2CN1C[C@@H](O)[C@H](Cc1ccccc1)NC(=O)[C@H](CC(N)=O)NC(=O)c1ccc2ccccc2n1", "cell line": "MT-4", "mutations": "PR-L10R M46I L63P V82T I84V", "strain": "NL4-3", "read-out": "EC95", "method": "p24", "value": "0.2 µM"}
{"structure": "CC(C)(C)NC(=O)[C@@H]1C[C@@H]2CCCC[C@@H]2CN1C[C@@H](O)[C@H](Cc1ccccc1)NC(=O)[C@H](CC(N)=O)NC(=O)c1ccc2ccccc2n1", "cell line": "PBL", "read-out": "EC99", "value": "0.06 µM"}
{"structure": "CCCc1cc(=O)oc2c3c(c4c(c12)OC(C)(C)C=C4)O[C@H](C)[C@@H](C)[C@@H]3O", "cell line": "CEM + CEM-SS", "mutations": "RT-L100I", "strain": "Dihydrocostatolide-resistant (RT-L100I)", "read-out": "EC50", "method": "XTT", "value": "7.2 µM"}
{"structure": "N#Cc1cc2[nH]c3ccccc3c2n(-c2ccc([N+](=O)[O-])cc2)c1=O", "cell line": "HeLa", "mutations": "RT-Y181C", "strain": "NNRTI-resistant", "read-out": "fold resistance", "method": "luciferase", "value": "2.9"}
{"structure": "CC[C@H](C)[C@H](C(=O)O)N1C[C@H](CN2CCC(c3cc(Cc4cccc(OC)c4)nn3CC)CC2)[C@@H](c2cccc(F)c2)C1", "cell line": "HeLa", "strain": "BaL", "read-out": "EC90", "method": "β-galactosidase", "value": "<0.00014 µM"}
{"structure": "c1cc(CN2CCCNCCNCCCNCC2)ccc1CN1CCCNCCNCCCNCC1", "cell line": "PBMC", "strain": "SW5 CLADE C R5", "read-out": "inhibition", "method": "p24", "tested at": "0.5 µM", "value": "19%"}
{"structure": "CCOc1ccc(Cc2cc(C3CCN(C[C@H]4CN([C@@H](C(=O)O)C(C)(C)C)C[C@@H]4c4cccc(F)c4)CC3)n(CC)n2)cc1F", "cell line": "HeLa", "strain": "BaL", "read-out": "EC90", "method": "β-galactosidase", "value": "<0.00014 µM"}
{"structure": "CC(C)c1ccccc1-n1nnnc1SCC(=O)Nc1ccccc1[N+](=O)[O-]", "cell line": "MT-4", "read-out": "EC95", "method": "p24", "value": "<10 µM"}
{"structure": "Nc1ncnc2c1ncn2[C@H]1CC[C@@H](CO)O1", "cell line": "U-937", "strain": "LAV-1", "read-out": "inhibition", "method": "virus yield", "tested at": "0.1 µM", "value": "0%"}
{"structure": "Cc1cc(C)c(-n2nnnc2SCC(=O)Nc2ccc(Cl)cc2F)c(C)c1", "cell line": "MT-4", "read-out": "EC95", "method": "p24", "value": "<10 µM"}
{"structure": "Cc1ccc(S(=O)(=O)N(CC(C)C)C[C@@H](O)[C@H](Cc2ccccc2)NC(=O)O[C@H]2CO[C@H]3OCC[C@H]32)cc1", "cell line": "MT-2", "mutations": "D437N", "strain": "IIIB", "read-out": "fold resistance", "method": "p24 / ELISA", "value": "1.3"}
{"structure": "CC(C)=CCN1Cc2cc(Cl)cc3[nH]c(=S)n(c23)C[C@@H]1C", "cell line": "MT-4", "mutations": "RT-L74V K103N", "read-out": "EC95", "value": ">3 µM"}
{"structure": "O=C(O)P(=O)(O)O", "cell line": "PBL", "strain": "IIIB", "read-out": "inhibition", "setting": "14 d", "method": "RT activity", "tested at": "64 µM", "value": "79%"}
{"structure": "Cc1cccc(Cl)c1-n1nnnc1SCC(=O)Nc1ccccc1[N+](=O)[O-]", "cell line": "MT-4", "read-out": "EC95", "method": "p24", "value": "<10 µM"}
{"structure": "Cc1cn([C@H]2C[C@H](N=[N+]=[N-])[C@@H](COP(=O)(O)OC[C@H]3OC(O)[C@H](O)[C@@H](O)[C@@H]3O)O2)c(=O)[nH]c1=O", "cell line": "CEM", "strain": "LAV-Bru", "read-out": "inhibition", "setting": "7 d", "method": "RT activity", "tested at": "5 µM", "value": "95%"}
{"structure": "CC(C)CN(C[C@@H](O)[C@H](Cc1ccccc1)NC(=O)[C@H](CC(N)=O)NC(=O)c1ccc2ccccc2n1)C(=O)NC(C)(C)C", "cell line": "MT-4", "mutations": "PR-L10R M46I L63P V82T", "strain": "NL4-3", "read-out": "EC95", "method": "p24", "value": "0.4 µM"}
{"structure": "CC(=O)c1ccccc1NC(=O)CSc1nnnn1-c1c(C)cc(C)cc1C", "cell line": "MT-4", "read-out": "EC95", "method": "p24", "value": "<10 µM"}
{"structure": "O=C1N(Cc2ccc(CO)cc2)[C@H](Cc2ccccc2)[C@H](O)[C@@H](O)[C@@H](Cc2ccccc2)N1Cc1ccc(CO)cc1", "cell line": "PBMC", "strain": "RF", "read-out": "inhibition", "method": "virus yield", "tested at": "0.14 µM", "value": "90%"}
{"structure": "Cc1ccc(-n2nnnc2SCC(=O)Nc2ccc(C)c([N+](=O)[O-])c2)cc1", "cell line": "MT-4", "read-out": "EC95", "method": "p24", "value": "<10 µM"}
{"structure": "Cn1c2ccccc2c2c1cc(C#N)c(=O)n2-c1ccc([N+](=O)[O-])cc1", "cell line": "HeLa", "mutations": "RT-K65R K70R V75I F77L F116Y Q151M", "strain": "NRTI resistant", "read-out": "fold resistance", "method": "luciferase", "value": "1.6"}
{"structure": "O=C(Nc1cc(S(=O)(=O)O)cc2cc(S(=O)(=O)O)c(N=Nc3ccc(N=Nc4c(S(=O)(=O)O)cc5cc(S(=O)(=O)O)cc(NC(=O)c6cccc(Cl)c6Cl)c5c4O)cc3)c(O)c12)c1ccc(Cl)cc1Cl", "cell line": "MT-2", "strain": "RF", "read-out": "EC90", "value": "0.8–1 µg/mL"}
{"structure": "Cc1ccnc2c1NC(=O)c1cccnc1N2C1CC1", "cell line": "PBMC", "strain": "CLADE F", "read-out": "EC50", "method": "RT activity", "value": "0.2 µM"}
{"structure": "Cc1cn([C@H]2C[C@H](N=[N+]=[N-])[C@@H](CO)O2)c(=O)[nH]c1=O", "cell line": "MT-4", "strain": "NL4-3 WT", "read-out": "EC90", "method": "p24", "value": "0.03 µM"}
{"structure": "Cc1cn([C@H]2C[C@H](N=[N+]=[N-])[C@@H](CO)O2)c(=O)[nH]c1=O", "cell line": "C8166", "strain": "CBL-1", "read-out": "EC90", "method": "cytopathic effect", "value": "0.1 µg/mL"}
{"structure": "O=c1[nH]cnc2c1ncn2[C@H]1CC[C@@H](CO)O1", "cell line": "HT4 + HT4 LacZ-1", "mutations": "RT-D67N K70R T215Y K219Q", "strain": "RTMC", "read-out": "fold resistance", "method": "plaque count", "value": "1.43"}
{"structure": "N#CC[C@H](C1CCCC1)n1cc(-c2ncnc3[nH]ccc23)cn1", "cell line": "Primary T lymphocytes", "mutations": "K65R", "read-out": "EC90", "method": "p24 / ELISA", "value": "8.5 µM"}
{"structure": "CO[P@](=O)(c1cc(C)cc(/C=C/C#N)c1)c1c(C(N)=O)[nH]c2ccc(Cl)cc12", "cell line": "U-937", "strain": "IIIB", "read-out": "EC50", "value": "0.0005 µM"}
{"structure": "CC(C)CN(C[C@@H](O)[C@H](Cc1ccccc1)NC(=O)O[C@H]1CCOC1)S(=O)(=O)c1ccc(N)cc1", "cell line": "MT-2", "mutations": "D437N L441P", "strain": "IIIB", "read-out": "fold resistance", "method": "p24 / ELISA", "value": "0.8"}
{"structure": "CC(C)(C)NC(=O)[C@@H]1C[C@@H]2CCCC[C@@H]2CN1C[C@@H](O)[C@H](Cc1ccccc1)NC(=O)[C@H](CC(N)=O)NC(=O)c1ccc2ccccc2n1", "cell line": "MT-4", "mutations": "PR-D30N A71V", "strain": "NL4-3-P22 (PR D30N A71V)", "read-out": "EC90", "method": "p24", "value": "0.01 µM"}
{"structure": "CC[C@H](C)[C@H](C(=O)O)N1C[C@H](CN2CCC(c3cc(Cc4ccc(OC(F)F)cc4)nn3CC)CC2)[C@@H](c2cccc(F)c2)C1", "cell line": "HeLa", "strain": "BaL", "read-out": "EC90", "method": "β-galactosidase", "value": "<0.00014 µM"}
{"structure": "Nc1ccn([C@@H]2CS[C@H](CO)O2)c(=O)n1", "cell line": "Primary T lymphocytes", "mutations": "K65R", "read-out": "EC90", "method": "p24 / ELISA", "value": "6 µM"}
{"structure": "Cc1cn([C@H]2C[C@H](N=[N+]=[N-])[C@@H](CO)O2)c(=O)[nH]c1=O", "cell line": "CEM", "strain": "LAV-Bru", "read-out": "inhibition", "setting": "15 d", "method": "RT activity", "tested at": "0.2 µM", "value": "94%"}
{"structure": "CC(C)Nc1cccnc1N1CCN(C(=O)c2cc3ccccc3[nH]2)CC1", "cell line": "PBMC", "strain": "Seropositive clinical isolate B", "read-out": "inhibition", "method": "MTT", "tested at": "1 µM", "value": "100%"}
{"structure": "Cc1cc(C)c(-n2nnnc2SCC(=O)Nc2ccc(C(N)=O)cc2Cl)c(C)c1", "cell line": "MT-4", "read-out": "EC95", "method": "p24", "value": "<10 µM"}
{"structure": "C#C[C@]1(CO)O[C@@H](n2cnc3c(N)nc(F)nc32)C[C@@H]1O", "cell line": "MT4-GFP", "mutations": "V90I", "strain": "Clinical isolate", "read-out": "EC50", "method": "fluorescence", "value": "0.00093 µM"}
{"structure": "CC[C@H](C)[C@H](C(=O)O)N1C[C@H](CN2CCC(c3cc(Cc4ccc(OC)c(C#N)c4)nn3CC)CC2)[C@@H](c2cccc(F)c2)C1", "cell line": "HeLa", "strain": "BaL", "read-out": "EC90", "method": "β-galactosidase", "value": "<0.00014 µM"}
{"structure": "CCN(c1nc(F)ccc1NC(C)(C)C)C1CCN(C(=O)c2cc3cc(NC(=O)N4CCN(C)CC4)ccc3[nH]2)CC1", "cell line": "MT-2", "mutations": "R41K", "strain": "IIIB", "read-out": "fold resistance", "method": "p24 / ELISA", "value": "1.4"}
{"structure": "O=S(=O)(O)c1cc(N=C=S)ccc1CCc1ccc(N=C=S)cc1S(=O)(=O)O", "cell line": "C8166", "strain": "RF", "read-out": "inhibition", "method": "p24", "tested at": "50 µg/mL", "value": "41%"}
{"structure": "O=c1[nH]cnc2c1ncn2[C@H]1CC[C@@H](CO)O1", "cell line": "PBMC", "strain": "NL-XM WT", "read-out": "EC90", "method": "p24", "value": "28 µM"}
{"structure": "CC(=O)c1ccc(C)cc1NC(C(N)=O)c1c(Cl)cccc1Cl", "cell line": "CEM + CEM-SS", "mutations": "RT-L100I T139I", "strain": "Costatolide-resistant (RT L100I T139I)", "read-out": "fold resistance", "method": "XTT", "value": "3"}
{"structure": "CCn1nc(Cc2ccc(C(C)C)cc2)cc1C1CCN(C[C@H]2CN([C@@H](C(=O)O)C(C)(C)C)C[C@@H]2c2cccc(F)c2)CC1", "cell line": "HeLa", "strain": "BaL", "read-out": "EC90", "setting": "50% human serum", "method": "β-galactosidase", "value": "0.033 µM"}
{"structure": "Cc1cc(S(N)(=O)=O)ccc1NC(=O)COc1ccc(Cl)cc1C(=O)c1cc(Cl)cc(C#N)c1", "cell line": "MAGI", "mutations": "RT-G190E", "strain": "NNRTI-resistant (RT G190E)", "read-out": "fold resistance", "method": "β-galactosidase", "value": "1.35"}
{"structure": "C[C@H](Cn1cnc2c(N)ncnc21)OCP(=O)(O)O", "cell line": "MM + M/M", "read-out": "EC99", "value": "0.7 µM"}
{"structure": "Cc1cn([C@H]2C[C@H](N=[N+]=[N-])[C@@H](COP(=O)(O)OC[C@H]3OC(O)[C@@H](O)[C@@H](O)[C@@H]3O)O2)c(=O)[nH]c1=O", "cell line": "CEM", "strain": "LAV-Bru", "read-out": "inhibition", "setting": "26 d", "method": "RT activity", "tested at": "25 µM", "value": "94%"}

For reference, 4 entries again:

| structure | cell line | mutations | strain | read-out | setting | method | tested at | value |
|---|---|---|---|---|---|---|---|---|
| O=S(=O)(O)c1cc(N=C=S)ccc1CCc1ccc(N=C=S)cc1S(=O)(=O)O | C8166 |  | RF | inhibition |  | p24 | 50 µg/mL | 41% |
| CC(C)(C)NC(=O)[C@@H]1C[C@@H]2CCCC[C@@H]2CN1C[C@@H](O)[C@H](Cc1ccccc1)NC(=O)[C@H](CC(N)=O)NC(=O)c1ccc2ccccc2n1 | MT-4 | PR-D30N A71V | NL4-3-P22 (PR D30N A71V) | EC90 |  | p24 |  | 0.01 µM |
| N#CC[C@H](C1CCCC1)n1cc(-c2ncnc3[nH]ccc23)cn1 | Primary T lymphocytes | K65R |  | EC90 |  | p24 / ELISA |  | 8.5 µM |
| CCOc1ccc(Cc2cc(C3CCN(C[C@H]4CN([C@@H](C(=O)O)C(C)(C)C)C[C@@H]4c4cccc(F)c4)CC3)n(CC)n2)cc1F | HeLa |  | BaL | EC90 |  | β-galactosidase |  | <0.00014 µM |